Data as given in PubChem BioAssay AID1259414 (Drosophila RNAi Screening Center, 2018).
The deposit covers about 24,000 reagents; below is a random part of those that have a named target and a result. Of all reagents, about 1,210 (5%) got an active call. 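Inactive calls also include excluded dsRNAs with several or no targets, genes unexpressed in JW18, and well A1, regardless of score.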 A number with no mark means an inactive call. Reagents against one gene are numbered here. A plus sign joins genes that one reagent is predicted to hit.

Purpose: 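Fly genes that alter Wolbachia amount inside host cells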 (primary screen)
Cells: Drosophila JW18 cells infected with Wolbachia
Reagents: long dsRNA against Drosophila genes, 0.25 µg dsRNA per well of a 384-well plate
Duration: 5 days
Challenge: cells persistently infected with Wolbachia before knock-down; no added drug
Read-out: 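Automated imaging of bacterial rRNA staining divided by host cell count, reported as plate-normalised robust z-score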
Scale: Wolbachia per cell robust z: higher = more Wolbachia per host cell than the plate typical
Rule for the call: 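Active if absolute robust z reaches 1.5 in two or more of three replicates, leaving out multi- or no-target dsRNAs, genes unexpressed in JW18 and A1 wells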

| Target gene | reagent no. | Wolbachia per cell robust z, rep 1 | Wolbachia per cell robust z, rep 2 | Wolbachia per cell robust z, rep 3 |
| --- | --- | --- | --- | --- |
| CG4607 | 1 | 0.316 | -6.47 | -0.996 |
| CG4607 | 2 | 0.181 | -2.51 | -1.5 |
| CheA86a | 1 | -0.475 | -0.615 | -0.0354 |
| CG15140 | 1 | -1.73 | -1.89 | -0.191 |
| CG12730 | 1 | -5.99 | -0.141 | -0.148 |
| CG12992 | 1 | 0.0949 | -0.0118 | 0.0893 |
| CG12025 | 1 | -1.38 | 0.242 | -2.12 |
| Mnt | 1 | 0.458 | 0.621 | -0.371 |
| Mnt | 2 | 1.25 | -3.31 | 1.27 |
| tipE | 1 | -0.578 | 0.232 | 0.536 |
| tipE | 2 | 0.603 | -1.05 | 0.818 |
| Sin3A | 1 | 1.6 | -0.464 | 1.3 |
| Sin3A | 2 | -0.697 | -1.02 | -0.734 |
| oys | 1 | 1.11 | -0.0186 | -8.05 |
| oys | 2 | 0.284 | 0.0211 | 0.649 |
| oys | 3 | -0.566 | 1.31 | -0.399 |
| CG11854 | 1 | -0.0383 | -0.0265 | 0.343 |
| Klp64D | 1 | -0.493 | -2.52 | -1.28 |
| CR43381 + CR32821 + CR43379 + 1 more | 1 | 0.736 | 0.765 | 0.417 |
| CG3652 | 1 | -0.0364 | 0.988 | 0.47 |
| l(3)L1231 | 1 | 0.157 | 0.829 | 0.991 |
| beat-Va | 1 | 1.2 | -0.727 | -0.203 |
| CG15456 | 1 | 0.891 | 0.241 | -0.61 |
| CG34382 | 1 | -3.19 | -1.57 | -0.631 |
| CG34382 | 2 | 0.136 | -0.163 | 0.705 |

Entries above whose target name begins with S or s (2):
| Target gene | reagent no. | Wolbachia per cell robust z, rep 1 | Wolbachia per cell robust z, rep 2 | Wolbachia per cell robust z, rep 3 |
| --- | --- | --- | --- | --- |
| Sin3A | 1 | 1.6 | -0.464 | 1.3 |
| Sin3A | 2 | -0.697 | -1.02 | -0.734 |

Continued:
| Target gene | reagent no. | Wolbachia per cell robust z, rep 1 | Wolbachia per cell robust z, rep 2 | Wolbachia per cell robust z, rep 3 |
| --- | --- | --- | --- | --- |
| CG5126 | 1 | -1.02 | -0.309 | 0.554 |
| CG10631 | 1 | -6.14 | 0.207 | -0.594 |
| Unc-115a | 1 | 0.865 | 0.623 | 0.336 |
| Unc-115a | 2 | 0.151 | -7.33 | -0.598 |
| pix | 1 | 0.843 | -0.574 | 1.9 |
| CG6664 | 1 | -1.46 | -0.424 | -2.52 |
| CG6664 | 2 | 2.02 | 0.751 | -0.54 |
| CG6664 | 3 | -0.969 | -1.26 | -0.798 |
| Zip71B | 1 | 1.1 | 0.609 | 1.11 |
| Zip71B | 2 | 0.264 | -0.122 | -0.483 |
| bsk | 1 | 0.788 | -0.213 | 0.501 |
| bsk | 2 | 0.49 | 1.22 | 1.97 |
| CG4022 | 1 | -4.46 (active) | -1.56 | -0.982 |
| CG4022 | 2 | 0.793 | -0.0456 | 0.69 |
| Vmat | 1 | 0.305 | -0.0266 | 0.47 |
| Vmat | 2 | -2.5 (active) | -2.49 | -1.28 |
| Vmat | 3 | -1.31 | -0.922 | -0.769 |
| DnaJ-1 | 1 | 1.32 | -0.187 | 1.03 |
| DnaJ-1 | 2 | 0.994 | 0.644 | 0.302 |
| cid | 1 | -0.213 | 0.253 | -3.19 |
| cid | 2 | -3.53 | 0.32 | -1.3 |
| pr | 1 | 1.29 | 0.623 | 0.424 |
| dpr8 | 1 | -0.216 | -3.5 | -2.97 |
| dpr8 | 2 | -0.73 | -0.987 | -5.11 |
| dpr8 | 3 | -4.45 | 0.0793 | -2.02 |
| dpr8 | 4 | 0.456 | -1.37 | -2.19 |
| CG14414 | 1 | -4 (active) | -2.35 | -0.157 |
| OXA1L | 1 | 1.32 | 1.29 | 1.08 |
| OXA1L | 2 | 0.312 | -0.594 | 0.294 |
| Sry-delta | 1 | -0.248 | 0.156 | -0.4 |
| CG11436 | 1 | -0.441 | 0.0812 | 0.827 |
| lectin-21Cb | 1 | -0.0891 | -2.72 | -2.69 |
| CG31244 | 1 | 0.124 | -0.223 | 0.0702 |
| kuk | 1 | 1.05 | 1.07 | 2.21 |
| kuk | 2 | 2.05 | -0.712 | -0.0807 |
| Cpr47Ea | 1 | 0.124 | 0.473 | 0.677 |
| eco | 1 | 1.06 | 1.32 | -0.413 |
| CG1309 | 1 | -8.11 (active) | -1.55 | -1.86 |
| Ttc7 | 1 | -0.368 | -0.839 | -0.944 |
| CG18223 | 1 | 0.494 | -0.636 | 0.502 |
| lov | 1 | -0.326 | -0.195 | -5.18 |
| lov | 2 | 0.717 | -0.231 | 0.963 |
| Skp2 | 1 | 0.571 | 0.578 | -0.968 |
| Skp2 | 2 | 0.494 | 0.921 | 1.56 |
